Assay results: US20250002564A1, “MODIFIED MULTABODY CONSTRUCTS, COMPOSITIONS, AND METHODS” (HOSPITAL FOR SICK CHILDREN, published 2025)

B1: mAb 80 (antibody, V domains shown)
VH: QVQLVQSGAEVKKPGSSVKVSCKASGGTFNRYAFSWVRQAPGQGLEWMGGIIPIFGTANYAQKFQGRVTITADESTSTAYMELSSLRSEDTAVYYCARSTRELPEVVDWYFDLWGRGTLVTVSS
VL: DIVMTQSPDSLAVSLGERATINCKSSQSVLYSSNNKNYLAWYQQKPGQPPKLLIYWASTRESGVPDRFSGSGSGTDFTLTISSLQAEDVAVYYCQQYYSAPLTFGGGTKVEIKR
notes: also called IgG 80; Antibody 80
B2: mAb 298 (antibody, V domains shown)
VH: QVQLVQSGAEVKKPGASVKVSCKASGGTFSTYGISWVRQAPGQGLEWMGWISPNSGGTDLAQKFQGRVTMTRDTSTSTVYMELSSLRSEDTAVYYCASDPRDDIAGGYWGQGTLVTVSS
VL: not shown
notes: also called IgG 298; Antibody 298

Legend:
[1] = biological target: T1, SARS-CoV-2 receptor binding domain (RBD), wild type, His-tagged (SARS-CoV-2, UniProt P0DTC2 319-541); assay: method and format not given
T1 construct: domain: RBD; also called His-tagged RBD; BEI NR52309

[2] = biological target: T2, SARS-CoV-2 Spike on wild-type pseudotyped virus (PsV) (SARS-CoV-2, UniProt P0DTC2 14-1273); assay: cell-based or functional assay
[3] = biological target: Spike of authentic SARS-CoV-2/SB2-P4-PB virus (SARS-CoV-2, UniProt P0DTC2 14-1273); assay: cell-based or functional assay
[4] = biological target: T2, SARS-CoV-2 Spike on wild-type …; assay: cell-based or functional assay; remark: listed apart in the source
[5] = biological target: T1, SARS-CoV-2 receptor binding domain …; assay: method and format not given; remark: listed apart in the source

| Binder | Kd [1] | Median IC50 [2] | IC50 SARS-CoV2/SB2-P4-PB (IgG) [3] | IC50 SARS-CoV2 PsV (IgG) [4] | Kd [5] |
| --- | --- | --- | --- | --- | --- |
| B1 | 142 nM | 0.1 µg/mL and 0.67 nM | 12.7 µg/mL | 0.1 µg/mL |  |
| B2 |  | 0.28 µg/mL and 1.9 nM | 2.2 µg/mL | 2.8 µg/mL | 24 nM |

Where “and” joins values, the source holds several entries; their conditions need not be identical. Identical values can stand only once. Like-named read-outs stand apart in the source and are kept apart here.
